# Measurements from US9125855B2, “Prevention of Salmonella recrudescense” (priority 2011, dated 2015).
# System: genes of Salmonella Typhimurium induced intracellularly in PAM
# Test: IVET screening for intracellularly cortisol induced genes of Salmonella Typhimurium
# Type: cell-based
# [1] = PAM + 1 μM cortisol, positive of 3 independent experiments
structure (smiles),measurement,setting,value
"C[C@]12CCC(=O)C=C1CC[C@@H]1[C@@H]2[C@@H](O)C[C@@]2(C)[C@H]1CC[C@]2(O)C(=O)CO [cortisol, Cortisol]",Freq. + 1 μM cortisol: STM0409,[1],1/3
same,Freq. + 1 μM cortisol: STM2314,[1],1/3
same,Freq. + 1 μM cortisol: cbpA,[1],3/3
same,Freq. + 1 μM cortisol: cmk,[1],2/3
same,Freq. + 1 μM cortisol: gyrB,[1],1/3
same,Freq. + 1 μM cortisol: lysS,[1],2/3
same,Freq. + 1 μM cortisol: marC,[1],1/3
same,Freq. + 1 μM cortisol: pflC,[1],3/3
same,Freq. + 1 μM cortisol: pflD,[1],3/3
same,Freq. + 1 μM cortisol: prfC,[1],1/3
same,Freq. + 1 μM cortisol: proP,[1],1/3
same,Freq. + 1 μM cortisol: prpE,[1],2/3
same,Freq. + 1 μM cortisol: rnT,[1],1/3
same,Freq. + 1 μM cortisol: tolC,[1],1/3
same,Freq. + 1 μM cortisol: torA,[1],1/3
same,Freq. + 1 μM cortisol: trpS,[1],1/3
same,Freq. + 1 μM cortisol: yfeC,[1],1/3
same,Freq. + 1 μM cortisol: yggE,[1],2/3
same,Freq. + 1 μM cortisol: yqjE,[1],1/3
same,Freq. + 1 μM cortisol: yqjg,[1],1/3
same,% + 1 μM cortisol: STM0409,share of tested colonies,0.7%
same,% + 1 μM cortisol: STM2314,share of tested colonies,0.7%
same,% + 1 μM cortisol: STM4067,share of tested colonies,36.3%
same,% + 1 μM cortisol: entF,share of tested colonies,0.7%
same,% + 1 μM cortisol: gyrB,share of tested colonies,0.3%
same,% + 1 μM cortisol: lysS,share of tested colonies,1.0%
same,% + 1 μM cortisol: marC,share of tested colonies,0.3%
same,% + 1 μM cortisol: menA,share of tested colonies,6.0%
same,% + 1 μM cortisol: menG,share of tested colonies,4.6%
same,% + 1 μM cortisol: prfC,share of tested colonies,0.3%
same,% + 1 μM cortisol: prpE,share of tested colonies,0.7%
same,% + 1 μM cortisol: rpoE,share of tested colonies,0.3%
same,% + 1 μM cortisol: scsA,share of tested colonies,8.1%
same,% + 1 μM cortisol: tolC,share of tested colonies,0.7%
same,% + 1 μM cortisol: ycgB,share of tested colonies,0.3%
same,% + 1 μM cortisol: yfeA,share of tested colonies,0.3%
same,% + 1 μM cortisol: yfeC,share of tested colonies,0.3%
same,% + 1 μM cortisol: ygdH,share of tested colonies,0.7%
same,% + 1 μM cortisol: yjbB,share of tested colonies,0.3%
same,% + 1 μM cortisol: yqjE,share of tested colonies,1.0%
